Anti-infective test results gathered from many reports (values: NIAID ChemDB through PubChem).

Shared fields: host cell toxicity; cell line: PBMC; endpoint: CC50

CCn: concentration that lowers growth or viability of the cells by n%.

SMILES	result
COc1c(C)c(O)c(C(=O)C(C)C)c(O)c1Cc1c(O)c(C)c(O)c2c1OC(C)(C)CC2=O	1.3 µM
COc1ccnc2[nH]cc(C(=O)C(=O)N3CCN(C(=O)c4ccccc4)C[C@H]3C)c12	>225 µM
CCCCCCCCCCCCCCCC(=O)N(CCCCCCCCCCC(=O)O)CC(O)C(O)C(O[C@@H]1O[C@H](CO)[C@H](O)[C@H](O)[C@H]1O)C(O)CO	>246 µM
C=Cc1c(C)c2cc3[nH]c(cc4nc(cc5nc(cc1[nH]2)C(C)=C5CCC(=O)OC)C(CCC(=O)OC)=C4C)c(C)c3C=C	>100 µM
Nc1ccn([C@@H]2C=C(F)[C@H](CO)C2)c(=O)n1	>100 µM
Cc1ccc(S(=O)(=O)NCCc2ccc3c(n2)NCCC3)cc1F	50 µM
Nc1nc2c(ncn2[C@@H]2C=C(F)[C@H](CO)C2)c(=O)[nH]1	>100 µM
C=Cc1c(C)c2cc3[nH]c(cc4nc(cc5nc(cc1[nH]2)C(C)=C5CCC(=O)O)C(CCC(=O)O)=C4C)c(C)c3C=C	>100 µM
CCOC(=O)[C@H](C)NP(=O)(OCC(F)(F)C(F)(F)Cn1ccc(N)nc1=O)Oc1ccccc1	>100 µM
CC(C)=CCc1c(O)cc2oc(-c3ccc(O)cc3O)c(CC=C(C)C)c(=O)c2c1O	19.1 µM
Cc1cn([C@@H]2O[C@@H](CO)CC2(F)F)c(=O)[nH]c1=O	>100 µM
S=C(NCCC1=CCCCC1)Nc1ccc(Cl)cn1	>100 µM
OC[C@@H]1C[C@H](F)[C@H](n2cnc3c(F)ncnc32)O1	>80 µM
Nc1nc2c(ccn2[C@H]2C=C[C@@H](CO)C2)c(=O)[nH]1	>100 µM
C[n+]1ccc(-c2c3nc(c(-c4cc[n+](C)cc4)c4ccc([nH]4)c(-c4cc[n+](C)cc4)c4nc(c(-c5cc[n+](C)cc5)c5ccc2[nH]5)C=C4)C=C3)cc1	>100 µM
C[Si](O)(O[Si](C)(CCCn1cnc2c(N)ncnc21)c1ccccc1)c1ccccc1	>100 µM
C1=Cc2nc1c(-c1ccccc1)c1ccc([nH]1)c(-c1ccccc1)c1nc(c(-c3ccccc3)c3ccc([nH]3)c2-c2ccccc2)C=C1	>100 µM
Cc1cncc2ccc(C(=O)NCc3ccccc3OC(C)C)nc12	4.3 µg/mL
CSCSc1nc(Cc2ccccc2)c(C)c(=O)[nH]1	>100 µM
OC[C@@H]1C[C@H](F)[C@H](n2cnc3c(F)ncnc32)O1	>80 µM
NNC(=O)CN1c2c(-c3ccccc3)n[nH]c2-c2ccccc2S1(=O)=O	>100 µM
O=[N+]([O-])c1ccc(/C=C/c2ccc(N=Nc3ccc(/C=C/c4ccc([N+](=O)[O-])cc4S(=O)(=O)O)c(S(=O)(=O)O)c3)cc2S(=O)(=O)O)c(S(=O)(=O)O)c1	>100 µM
CC(C)OC(=O)[C@H](C)NP(=O)(OC[C@H]1O[C@@H](n2cnc3c(N)ncnc32)C(F)(F)C1(F)F)Oc1ccccc1	27 µM
COc1ccc(-c2c3nc(c(-c4ccc(OC)cc4)c4ccc([nH]4)c(-c4ccc(OC)cc4)c4nc(c(-c5ccc(OC)cc5)c5ccc2[nH]5)C=C4)C=C3)cc1	>200 µM
CNc1ncnc2c1ncn2[C@@H]1O[C@H](CO)C[C@@H]1F	>80 µM
c1csc(-c2cc(-c3cccs3)nc(N3CCOCC3)n2)c1	>100 µM
O=c1ccn(CC(F)(F)C(F)(F)CO)c(=O)[nH]1	>100 µM
Cc1ccc(-c2c3nc(c(-c4ccc(C)cc4)c4ccc([nH]4)c(-c4ccc(C)cc4)c4nc(c(-c5ccc(C)cc5)c5ccc2[nH]5)C=C4)C=C3)cc1	>100 µM
Nc1ncnc2c1ncn2[C@@H]1O[C@@H](CO)C=C1F	>100 µM
Cc1cn([C@@H]2C[C@H](CO)C(F)(F)C2)c(=O)[nH]c1=O	>100 µM
Nc1ccn([C@H]2O[C@@H](CO)CC2(F)F)c(=O)n1	>100 µM
CC(C)CCC[C@@H](C)[C@H]1CCC2C3CCC4C[C@@H](OCc5cn([C@@H]6O[C@H](COS(=O)(=O)[O-])[C@@H](O[C@H]7O[C@H](COS(=O)(=O)[O-])[C@@H](O[C@H]8O[C@H](COS(=O)(=O)[O-])[C@@H](OS(=O)(=O)[O-])[C@H](OS(=O)(=O)[O-])[C@H]8OS(=O)(=O)[O-])[C@H](OS(=O)(=O)[O-])[C@H]7OS(=O)(=O)[O-])[C@H](OS(=O)(=O)[O-])[C@H]6OS(=O)(=O)[O-])nn5)CC[C@]4(C)C3CC[C@@]21C	300 µg/mL
N#CC1C=Cc2ccccc2N1C(=O)c1ccc(Cl)cc1	>10 µM
Nc1ccn([C@H]2O[C@@H](CO)C=C2F)c(=O)n1	>100 µM
CCOc1ncnc2c1ncn2[C@@H]1O[C@H](CO)C[C@@H]1F	>80 µM
COc1cc2oc3c(c(=O)c2c(O)c1/C=C/C(C)C)C(C=C(C)C)Oc1cc(O)ccc1-3	15.7 µM
OC[C@@H]1C[C@H](F)[C@H](n2cnc3c(Cl)ncnc32)O1	>80 µM
COc1ccc(/C=N/NC(=O)CN2c3c(-c4ccccc4)n[nH]c3-c3ccccc3S2(=O)=O)cc1	76.3 µM
Nc1nc2c(ncn2[C@@H]2O[C@@H](CO)C=C2F)c(=O)[nH]1	>100 µM
CC1(C)Oc2ccc3ccc(=O)oc3c2[C@@H](OC(=O)C23CCC(C)(C(=O)O2)C3(C)C)[C@H]1OC(=O)C12CCC(C)(C(=O)O1)C2(C)C	13.7 µM
Nc1nc2c(ncn2CC(F)(F)C(F)(F)C(F)(F)CO)c(=O)[nH]1	>100 µM
Nc1ncnc2c1ncn2[C@@H]1O[C@H](CO)C(F)(F)C1(F)F	>100 µM
O=c1[nH]cnc2c1ncn2C1OC(CO)CC1(F)F	>100 µM
Nc1ncnc2c1ncn2[C@@H]1C=C(F)[C@H](CO)C1	>100 µM
Nc1nc(=O)n([C@@H]2O[C@@H](CO)C=C2F)cc1F	>100 µM
Cn1cc(C(=O)O)c(=O)c2cc(F)c(N3CC=C(c4ccccc4)CC3)c(C(F)(F)F)c21	5 µM
CCN(CC)c1ccc(/C=N/NC(=O)CN2c3c(-c4ccccc4)n[nH]c3-c3ccccc3S2(=O)=O)cc1	52.2 µM
Nc1ccn([C@@H]2O[C@@H](CO)[C@H](O)C2(F)F)c(=O)n1	>100 µM
Nc1nc(Cl)c2ncn([C@H]3O[C@@H](CO)C=C3F)c2n1	>100 µM
Nc1nccc2c1ncn2[C@@H]1O[C@H](CO)[C@@H](O)[C@H]1O	10 µM
Nc1nc(F)nc2c1ncn2[C@H]1O[C@@H](CO)C=C1F	25.8 µM
Nc1ncnc2c1ncn2[C@H]1C=C(F)[C@@H](CO)C1	>100 µM
CC(C)OC(=O)[C@H](C)NP(=O)(OC[C@H]1O[C@@H](n2ccc(N)nc2=O)C(F)(F)C1(F)F)Oc1ccccc1	>100 µM
Nc1nc(=O)n([C@@H]2O[C@@H](CO)CC2(F)F)cc1I	>100 µM
O=c1[nH]cnc2c1ncn2[C@H]1C=C(F)[C@@H](CO)C1	>100 µM
CC(C)(C)OC(=O)N1[C@H](CO)CC(F)(F)[C@H]1n1cc(F)c(=O)[nH]c1=O	30.5 µM
O=C(NCCc1ccccc1)C1=Cc2ccncc2CC1	74.7 µg/mL
COc1ccc(/C=N/NC(=O)CN2c3c(-c4ccccc4)n[nH]c3-c3ccccc3S2(=O)=O)cc1OC	75.8 µM
CN(C)CCNc1cc(NCCN(C)C)nc(-c2cc3ccccc3s2)n1	10 µM
Oc1ccc(-c2c3nc(c(-c4ccc(O)c(O)c4)c4ccc([nH]4)c(-c4ccc(O)c(O)c4)c4nc(c(-c5ccc(O)c(O)c5)c5ccc2[nH]5)C=C4)C=C3)cc1O	>100 µM
Cc1cn(CC(F)(F)C(F)(F)C(F)(F)COP(=O)(N[C@@H](C)C(=O)OC(C)C)Oc2ccccc2)c(=O)[nH]c1=O	>100 µM
CC(C)=CCOc1ccc2ccc(=O)oc2c1CC(=O)C(C)C	96.8 µM
Nc1ncnc2c1ncn2[C@@H]1O[C@H](CO)[C@@H](F)[C@@H]1F	>100 µM
CN1CCN(Cc2ccc(-c3cccc(-c4ccc(CN5CCN(C)CC5)cc4)n3)cc2)CC1	100 µM
CCn1cc(C(=O)O)c(=O)c2cc(F)c(N3CCN(c4ccccc4OC)CC3)c(OC(F)F)c21	16.3 µM
Nc1ccn([C@@H]2C[C@H](CO)C(F)(F)C2)c(=O)n1	>100 µM
NNc1ncnc2c1ncn2[C@@H]1O[C@H](CO)C[C@@H]1F	>80 µM
COc1cc2oc(-c3ccc(O)cc3O)c(CC=C(C)C)c(=O)c2c(O)c1CC=C(C)C	41.7 µM
O=c1[nH]c(=O)n([C@@H]2O[C@@H](CO)CC2(F)F)cc1F	>100 µM
Nc1ccn([C@@H]2O[C@H](CO)C(F)(F)C2(F)F)c(=O)n1	>100 µM
CC(C)(C)OC(=O)N1[C@H](CO)CC(F)(F)[C@@H]1n1cc(F)c(=O)[nH]c1=O	28.2 µM
O=S(=O)(NCCc1ccc2c(n1)NCCC2)c1ccc2ccccc2c1	50 µM
O=c1ccn([C@H]2O[C@@H](CO)CC2(F)F)c(=O)[nH]1	>100 µM
CC(C)OC(=O)[C@H](C)NP(=O)(OC[C@H]1O[C@@H](n2cnc3c(=O)[nH]c(N)nc32)C(F)(F)C1(F)F)Oc1ccccc1	>100 µM
O=c1[nH]cnc2c1ncn2[C@H]1O[C@@H](CO)C=C1F	>100 µM
COc1ccc(NC(=O)NCCc2ccc3c(n2)NCCC3)cc1	1.6 µM
Oc1ccc(-c2c3nc(c(-c4ccc(O)cc4O)c4ccc([nH]4)c(-c4ccc(O)cc4O)c4nc(c(-c5ccc(O)cc5O)c5ccc2[nH]5)C=C4)C=C3)c(O)c1	>100 µM
[N-]=[N+]=N[C@H]1C[C@H](n2ccc(=O)[nH]c2=O)O[C@@H]1COP(=O)(O)OP(=O)(O)O[C@H]1O[C@H](CO)[C@@H](O)[C@H](O)[C@H]1O	>100 µM
O=C(O)c1ccc2c(c1)nc(Nc1cccc(C(F)(F)F)c1)c1nc(NC3CC3)ncc12	>100 µM
Cc1cn(CC(F)(F)C(F)(F)C(F)(F)CO)c(=O)[nH]c1=O	>100 µM
OC[C@@H]1C[C@H](F)[C@H](n2cnc3c(Cl)ncnc32)O1	>80 µM
C=C(C)[C@@H]1CC[C@]2(C(=O)NCCCCCCCC(=O)N[C@@H](CC(C)C)[C@@H](O)CC(=O)O)CC[C@]3(C)[C@H](CC[C@@H]4[C@@]5(C)CC[C@H](O)C(C)(C)[C@@H]5CC[C@]43C)[C@@H]12	>3 µM
O=C(NCCN1CCc2ccccc2C1)Nc1ccc(Cl)c(Cl)c1	4.5 µM
OCCN(CCO)CCOc1nc(-c2cccs2)cc(-c2cccs2)n1	100 µM
Nc1ncnc2c1ncn2[C@H]1O[C@H](CO)[C@@H](F)[C@@H]1F	>100 µM

A second listing of 5 rows from above:

SMILES,result
CCOC(=O)[C@H](C)NP(=O)(OCC(F)(F)C(F)(F)Cn1ccc(N)nc1=O)Oc1ccccc1,>100 µM
S=C(NCCC1=CCCCC1)Nc1ccc(Cl)cn1,>100 µM
Nc1ccn([C@@H]2C[C@H](CO)C(F)(F)C2)c(=O)n1,>100 µM
COc1ccc(NC(=O)NCCc2ccc3c(n2)NCCC3)cc1,1.6 µM
Nc1ccn([C@H]2O[C@@H](CO)C=C2F)c(=O)n1,>100 µM

Rows are shuffled and stem from different studies.